A mixed list of measured activities; the numbers were collected in NIAID ChemDB.

Shared fields: whole-cell or culture tests; species: Candida albicans; endpoint: MIC

Conditions beyond the fields shown may differ between rows.

structure | strain or isolate | read by | setting | value
COc1c(N2CCC(N)C2)c(F)cn2c(=O)c(C(=O)O)cc(C3CC3)c12 | CCH442 |  |  | >100 µg/mL
CC(C/C=C/C=C/CC/C=C\C=C\CCC(C)(C)C)C(O)C(O)C(O)C(O)C(O)C1OC(=O)C(O)C1O | ATCC 38247 |  |  | 1.6 µg/mL
CCNC1CCN(c2c(F)cn3c(=O)c(C(=O)O)cc(C4CC4)c3c2C)C1.Cl | CCH442 |  |  | >100 µg/mL
CCCCCCCCOc1ccc(-c2ccc(C(=O)NC3CC(NCCN)CNC(=O)[C@@H]4[C@@H](O)[C@@H](C)CN4C(=O)[C@@H](CO)NC(=O)[C@H]([C@H](O)Cc4ccccc4)NC(=O)[C@@H]4C[C@@H](O)CN4C(=O)[C@H]([C@@H](C)O)NC3=O)cc2)cc1 | SC5314 | resazurin |  | 0.5 µg/mL
CN[C@@H]1[C@H](O[C@@H]2OC[C@@H](O)[C@H](O)[C@H]2O)[C@@H](O)[C@H](O[C@H]2c3cc(C)c(C(=O)NCS(=O)(=O)O)c(O)c3-c3c(cc4c(c3O)C(=O)c3cc(OC)cc(O)c3C4=O)[C@@H]2O)O[C@@H]1C | A9540 |  |  | 50 µg/mL
CC(=Nc1cccc(Br)c1)c1cc(C(C)=Nc2cccc(Br)c2)c(O)cc1O | MTCC 227 | broth dilution |  | 1000 µg/mL
O=c1c(-c2ccc(O)cc2)coc2cc(OCCCCBr)cc(O)c12 |  | MTT |  | >50 µg/mL
C/C=C/Cc1ccc(OC)cc1 |  | broth dilution |  | 4740 µg/mL
CCCCN(CCCC)CCOc1cc(O)c2c(=O)c(-c3ccc(O)cc3)coc2c1 |  | MTT |  | >50 µg/mL
Cc1ccc2c(N3CCNCC3)cc(N3CCNCC3)c(O)c2n1 |  |  |  | 2.51 µg/mL
COCOC1CCN(c2c(F)cn3c(=O)c(C(=O)O)cc(C4CC4)c3c2C)CC1 | CCH442 |  |  | >100 µg/mL
OC(Cn1cncn1)(Cn1cncn1)c1ccc(F)cc1F | YL 370 | broth dilution |  | >512 µg/mL
O=C1Nc2ccccc2C1=Nc1ccc(Cc2cccc(N=C3C(=O)Nc4ccccc43)c2)cc1 | CIP 1180-79 |  |  | <50 µg/mL
Cc1c(N2C[C@@H]3CCC[C@@H](N)[C@H]3C2)c(F)cn2c(=O)c(C(=O)O)cc(C3CC3)c12.Cl | CCH442 |  |  | 50 µg/mL
CCCCN(CCCC)c1cc(N(CCCC)CCCC)c2ccc(C)nc2c1O |  |  |  | 0.35 µg/mL
Cc1c(N2CCC(CN)C2)c(F)cn2c(=O)c(C(=O)O)cc(C3CC3)c12 | CCH442 |  |  | >100 µg/mL
O=c1c(-c2ccc(O)cc2)coc2cc(OCCN3CCCCC3)cc(O)c12 |  | MTT |  | >50 µg/mL
O=C1C(=Nc2cccc(Cc3cccc(N=C4C(=O)N(Cc5ccccc5)c5ccccc54)c3)c2)c2ccccc2N1Cc1ccccc1 | CIP 1180-79 |  |  | <50 µg/mL
CN[C@@H]1[C@H](O[C@@H]2OC[C@@H](O)[C@H](O)[C@H]2O)[C@@H](O)[C@H](O[C@H]2c3cc(C)c(C(=O)N[C@H](C)C(=O)O)c(O)c3-c3c(cc4c(c3O)C(=O)c3cc(OC)cc(O)c3C4=O)[C@@H]2O)O[C@@H]1C | A9540 |  |  | 12.5 µg/mL
Cc1c(N2CCN(C)CC2)c(F)cn2c(=O)c(C(=O)O)cc(C3CC3)c12 | CCH442 |  |  | >100 µg/mL
CN1CCN(CCCOc2cc(O)c3c(=O)c(-c4ccc(O)cc4)coc3c2)CC1 |  | MTT |  | >50 µg/mL
Cc1c(N2C[C@@H]3CCC[C@H](N)[C@H]3C2)c(F)cn2c(=O)c(C(=O)O)cc(C3CC3)c12.Cl | CCH442 |  |  | 0.1 µg/mL
COc1cc(C=O)ccc1O | ATCC 90028 | XTT | biofilm | 500 µg/mL
c1ccc(-c2ccc(C(c3ccccc3)n3ccnc3)cc2)cc1 | 81 strains |  |  | 3.51 µg/mL
CCC(C)CC(C)CCCCCCCCC(=O)N[C@H]1C[C@@H](O)[C@H](NCCN)NC(=O)[C@@H]2[C@@H](O)CCN2C(=O)[C@H]([C@H](O)CCN)NC(=O)[C@H]([C@H](O)[C@@H](O)c2ccc(O)cc2)NC(=O)[C@@H]2C[C@@H](O)CN2C(=O)[C@H]([C@@H](C)O)NC1=O | DSY3988 | resazurin |  | 0.63 µg/mL
COC[C@@H](N)[C@@H]1CCN(c2c(F)cn3c(=O)c(C(=O)O)cc(C4CC4)c3c2C)C1.Cl | CCH442 |  |  | 100 µg/mL
CN[C@@H]1[C@H](O[C@@H]2OC[C@@H](O)[C@H](O)[C@H]2O)[C@@H](O)[C@H](O[C@H]2c3cc(C)c(C(=O)NCCC(=O)O)c(O)c3-c3c(cc4c(c3O)C(=O)c3cc(OC)cc(O)c3C4=O)[C@@H]2O)O[C@@H]1C | A9540 |  |  | >100 µg/mL
Cc1ccccc1O |  | broth dilution |  | 1050 µg/mL
Cc1ccc(C2OC(=O)/C(=C/c3ccc(O)c(O)c3)C2C(=O)O)cc1O | ATCC 10231 |  |  | >100 µg/mL
COc1cccc(N=C(C)c2cc(C(C)=Nc3cccc(OC)c3)c(O)cc2O)c1 | MTCC 227 | broth dilution |  | 250 µg/mL
O=c1c(-c2ccc(O)cc2)coc2cc(OCCCCn3ccnc3)cc(O)c12 |  | MTT |  | >50 µg/mL
C/C=C\C(C)=C\[C@H](C)C(=O)C[C@H](O)CC1CC(=O)NC(=O)C1 | IFO 1060 |  |  | >100 µg/mL
O=C1Nc2ccc(F)cc2C1=Nc1cccc(Cc2cccc(N=C3C(=O)Nc4ccc(F)cc43)c2)c1 | CIP 1180-79 |  |  | <50 µg/mL
Cc1ccc2c(N3CCCC3)cc(N3CCCC3)c(O)c2n1 |  |  |  | 1.58 µg/mL
Cc1c(N2C[C@@H]3C[C@H]2CN3)c(F)cn2c(=O)c(C(=O)O)cc(C3CC3)c12 | CCH442 |  |  | 0.2 µg/mL
Clc1ccc(COC(Cn2ccnc2)c2ccc(Cl)cc2Cl)c(Cl)c1 |  |  |  | 10 µg/mL
Cc1c(N2C[C@@H](CN)[C@H](C(F)(F)F)C2)c(F)cn2c(=O)c(C(=O)O)cc(C3CC3)c12 | CCH442 |  |  | >100 µg/mL
O=c1c(-c2ccc(O)cc2)coc2cc(OCCCN3CCCCC3)cc(O)c12 |  | MTT |  | >50 µg/mL
CN[C@@H]1[C@H](O[C@@H]2OC[C@@H](O)[C@H](O)[C@H]2O)[C@@H](O)[C@H](O[C@H]2c3cc(C)c(C(=O)O)c(O)c3-c3c(cc4c(c3O)C(=O)c3cc(OC)cc(O)c3C4=O)[C@@H]2O)O[C@@H]1C | A9540 |  |  | >100 µg/mL
CC(=O)O.Cc1c(N2CCCNCC2)c(F)cn2c(=O)c(C(=O)O)cc(C3CC3)c12 | CCH442 |  |  | >100 µg/mL
C[C@@H]1C[C@@H]([C@H](O)CC2CC(=O)NC(=O)C2)C(=O)[C@@H](C)C1 | Isolate 1 |  |  | 0.36 µM
COc1cc(/C=C/C(=O)O)ccc1O | ATCC 90028 | XTT | biofilm | >4000 µg/mL
Cc1c(N2CCc3ccccc3C2)c(F)cn2c(=O)c(C(=O)O)cc(C3CC3)c12 | CCH442 |  |  | >100 µg/mL
O=c1c(-c2ccc(O)cc2)coc2cc(OCCN3CCNCC3)cc(O)c12 |  | MTT |  | >50 µg/mL
Cc1cccc(O)c1 |  | broth dilution |  | 850 µg/mL
Cc1c(N2CCC(CCO)CC2)c(F)cn2c(=O)c(C(=O)O)cc(C3CC3)c12 | CCH442 |  |  | >100 µg/mL
COc1ccc(CO)cc1 | ATCC 90028 | XTT | biofilm | 500 µg/mL
O=C1Nc2ccc(F)cc2C1=Nc1ccc(Cc2ccc(N=C3C(=O)Nc4ccc(F)cc43)cc2)cc1 | CIP 1180-79 |  |  | <50 µg/mL
C/C=C/c1ccc(O)c(OC)c1 |  | broth dilution |  | 170 µg/mL
O=C/C=C/c1ccccc1 | ATCC 90028 | XTT | biofilm | 125 µg/mL

7 of the rows above, restated:

| structure | strain or isolate | read by | setting | value |
|---|---|---|---|---|
| Cc1c(N2CCN(C)CC2)c(F)cn2c(=O)c(C(=O)O)cc(C3CC3)c12 | CCH442 |  |  | >100 µg/mL |
| O=C1Nc2ccccc2C1=Nc1ccc(Cc2cccc(N=C3C(=O)Nc4ccccc43)c2)cc1 | CIP 1180-79 |  |  | <50 µg/mL |
| CN[C@@H]1[C@H](O[C@@H]2OC[C@@H](O)[C@H](O)[C@H]2O)[C@@H](O)[C@H](O[C@H]2c3cc(C)c(C(=O)NCS(=O)(=O)O)c(O)c3-c3c(cc4c(c3O)C(=O)c3cc(OC)cc(O)c3C4=O)[C@@H]2O)O[C@@H]1C | A9540 |  |  | 50 µg/mL |
| COc1ccc(CO)cc1 | ATCC 90028 | XTT | biofilm | 500 µg/mL |
| Cc1ccccc1O |  | broth dilution |  | 1050 µg/mL |
| Cc1cccc(O)c1 |  | broth dilution |  | 850 µg/mL |
| CN[C@@H]1[C@H](O[C@@H]2OC[C@@H](O)[C@H](O)[C@H]2O)[C@@H](O)[C@H](O[C@H]2c3cc(C)c(C(=O)N[C@H](C)C(=O)O)c(O)c3-c3c(cc4c(c3O)C(=O)c3cc(OC)cc(O)c3C4=O)[C@@H]2O)O[C@@H]1C | A9540 |  |  | 12.5 µg/mL |

Blank or dashed fields: not listed here.